Results of unrelated studies side by side (data: NIAID ChemDB).

Common to all: whole-cell or culture tests; agent: Hepatitis B virus; measure: EC50

Rows are shuffled and stem from different studies. ECn: concentration that inhibits the pathogen or its effect by n%. a–b is a range or a potency band.

{"SMILES": "Cc1cc(NC(=O)N2CCc3nn4c(c3C2)C(=O)N(C)CC(O)(c2ccccc2)C4)ccc1F", "read by": "fluorescence", "cell line": "HepG2.2.15", "value": "140 µM"}
{"SMILES": "C=C1[C@H](CO)[C@H]1Cn1cnc2c(N)ncnc21", "value": ">100 µM"}
{"SMILES": "C[C@H]1c2[nH]nc(-c3ncccn3)c2CN(C(=O)Nc2ccc(F)c(C#N)c2)[C@H]1C", "read by": "PCR", "cell line": "HepG2.2.15", "value": "0.028 µM"}
{"SMILES": "Nc1ncnc2c1nc(-c1ccccc1)n2[C@H]1CC[C@@H](CO)C1", "read by": "hybridisation", "cell line": "HepG2 2.2.15", "value": ">200 µM"}
{"SMILES": "C=C1[C@H](CO)[C@H]1Cn1cnc2c(N)nc(N)nc21", "value": ">100 µM"}
{"SMILES": "CC(C)Oc1ccc(-n2c(C(=O)NCc3ccccc3)c3n(c2=O)CCN(C(=O)COc2ccccc2Cl)C3)cc1", "read by": "PCR", "cell line": "HepG2.117", "value": ">5 µM"}
{"SMILES": "CN(/C=C1\\SC(=O)NC1=O)Cc1cccc2ccccc12", "read by": "ELISA", "cell line": "HepG2 2.2.15", "value": "9.56 µM"}
{"SMILES": "Cc1nc2c(N)ncnc2n1[C@H]1CC[C@@H](CO)C1", "read by": "hybridisation", "cell line": "HepG2 2.2.15", "value": "6 µM"}
{"SMILES": "O=C(NCc1ccc(OC(F)(F)F)cc1F)c1c2n(c(=O)n1-c1ccc(OCC(F)(F)F)cc1)CCN(C(=O)c1ccc(Br)c(Cl)c1)C2", "read by": "PCR", "cell line": "HepG2.117", "value": "0.5–5 µM"}
{"SMILES": "C[C@@H]1Cc2nn3c(c2CN1C(=O)Nc1ccc(F)c(C#N)c1)C(=O)N(C)C[C@@H](c1ccon1)C3", "read by": "fluorescence", "cell line": "HepG2.2.15", "value": "240 µM"}
{"SMILES": "N#CC[C@]1(O)CCC(F)(F)c2c3c(nn2C1)CCN(C(=O)Nc1ccc(F)c(C#N)c1)C3", "read by": "fluorescence", "cell line": "HepG2.2.15", "value": "0.016 µM"}
{"SMILES": "COc1cc2c(cc1Cl)-c1c(cc(C(=O)O)c(=O)n1C1CC1)CS2(=O)=O", "read by": "antigen / visual reading / absorbance", "cell line": "Primary human hepatocytes", "value": "0.1–0.5 µM"}
{"SMILES": "CC(C)Cc1cnn2c3c(c(=O)n(-c4ccc5c(c4)nnn5CCO)c12)C[C@@H](C)N(C(=O)c1ccc(Br)c(C(F)(F)F)c1)C3", "read by": "luminescence", "cell line": "HepG2.117", "value": "≤0.05 µM"}
{"SMILES": "C#CC1(NC(=O)C(=O)c2c(C)c(C(=O)Nc3ccc(F)c(C(F)F)c3)n(C)c2C)CC(F)(F)C1", "read by": "PCR", "cell line": "HepG2.2.15", "value": "0.001–0.0099 µM"}
{"SMILES": "Cc1n[nH]nc1-c1cc(-n2c(=O)c3c(n4ncc(Cc5ccccc5)c24)CN(C(=O)c2ccc(Br)c(C(F)(F)F)c2)[C@@H](C)C3)nn1C", "read by": "luminescence", "cell line": "HepG2.117", "value": "0.05–0.5 µM"}
{"SMILES": "CC1c2cc(C(=O)O)c(=O)n(C3CC3)c2-c2cc(Cl)c(OCC(F)F)cc2S1(=O)=O", "read by": "antigen / visual reading / absorbance", "cell line": "Primary human hepatocytes", "value": "0.1–0.5 µM"}
{"SMILES": "Cc1c(C(=O)C(=O)NC(C)(C)c2nnco2)c(C)n(C)c1C(=O)Nc1ccc(F)c(C#N)c1", "read by": "PCR", "cell line": "HepG2.2.15", "value": "0.001–0.0099 µM"}
{"SMILES": "CC(C)=CCC[C@]1(C)CC[C@]2(C)[C@H]3CC[C@@]4(C)[C@@H](CC[C@H](O)[C@@H]4C)[C@]3(C)CC[C@@]2(C)C1", "cell line": "HepG2.2.15", "value": "30.7 µM"}
{"SMILES": "C[C@@H]1Cc2nn3c(c2CN1C(=O)Nc1ccc(F)c(C#N)c1)C(=O)N(C)C[C@H](c1ccno1)C3", "cell line": "HepG2.2.15", "value": "22 µM"}
{"SMILES": "C=C[C@H](C)Nc1nc2c(c(=O)n1-c1ccc(C(=O)N(C)C(=O)O[C@H](OC(=O)[C@@H](N)C(C)C)C(C)C)cc1)C[C@@H](C)N(C(=O)c1ccc(Br)c(C(F)(F)F)c1)C2", "read by": "PCR", "strain or isolate": "Genotype D", "cell line": "HepG2.117", "value": "<0.05 µM"}
{"SMILES": "C=C1[C@H](CO)[C@H]1Cn1cnc2c(=O)[nH]cnc21", "value": ">100 µM"}
{"SMILES": "N#Cc1cc(NC(=O)N2CCc3nn4c(c3C2)C(F)(F)CCC(F)(CO)C4)ccc1F", "read by": "fluorescence", "cell line": "HepG2.2.15", "value": "0.005 µM"}
{"SMILES": "O=C(NC1CC2(C1)CC(c1nc3cc(Cl)ccc3o1)C2)C1CCS(=O)(=O)N1", "read by": "luminescence", "cell line": "Primary human hepatocytes", "value": "3.9 µM"}
{"SMILES": "O=C1c2cc3ccc4c(c3c(-c3ccc5c(c3)OCO5)c2CN1CCCO)OCO4", "value": "0.9 µM"}
{"SMILES": "CC(C)Cc1cnn2c3c(c(=O)n(-c4ccc5c(c4)ncn5C)c12)C[C@H](C)N(C(=O)c1ccc(Br)c(C(F)(F)F)c1)C3", "read by": "luminescence", "cell line": "HepG2.117", "value": "0.05–0.5 µM"}
{"SMILES": "C=C[C@H](C)Nc1nc2c(c(=O)n1-c1ccc(C(=O)N(C)C(=O)OCOP(=O)(O)O)cc1)C[C@@H](C)N(C(=O)c1ccc(Br)c(C(F)(F)F)c1)C2", "read by": "PCR", "strain or isolate": "Genotype D", "cell line": "HepG2.117", "value": "<0.05 µM"}
{"SMILES": "COCCCOc1cc2c(cc1-c1nccs1)-c1c(cc(C(=O)O)c(=O)n1C1CC1)C(C)S2(=O)=O", "read by": "antigen / visual reading / absorbance", "cell line": "Primary human hepatocytes", "value": "0.05–0.1 µM"}
{"SMILES": "O=C(NCc1ccccc1)c1c2n(c(=O)n1-c1ccc(N3CCC3)cc1)CCN(C(=O)c1ccc(Br)c(Cl)c1)C2", "read by": "PCR", "cell line": "HepG2.117", "value": "0.1–0.5 µM"}
{"SMILES": "CNC(=O)c1cc(-n2c(=O)c3c(n4ncc(Cc5ccccc5)c24)CN(C(=O)c2ccc(Br)c(C(F)(F)F)c2)CC3)nn1C", "read by": "luminescence", "cell line": "HepG2.117", "value": "≤0.05 µM"}
{"SMILES": "Cc1c(C(=O)C(=O)NC2(c3cn[nH]n3)COC2)c(C)n(C)c1C(=O)Nc1ccc(F)c(C#N)c1", "read by": "PCR", "cell line": "HepG2.2.15", "value": "0.001–0.0099 µM"}
{"SMILES": "CNC(=O)c1ccc(-n2c(=O)c3c(n4ncc(Cc5ccccc5)c24)CN(C(=O)c2ccc(Br)c(C)c2)CC3)cc1", "read by": "luminescence", "cell line": "HepG2.117", "value": "≤0.05 µM"}
{"SMILES": "COc1ccc2c(=O)c(/C=C/C(=O)NCc3ccccc3)coc2c1", "read by": "PCR", "cell line": "HepG2 2.2.15", "value": ">56.81 µM"}
{"SMILES": "CNC(=O)c1ccc(-n2c(=O)c3c(n4ncc([C@@H](C)c5ccccc5)c24)CN(C(=O)c2ccc(Br)c(C#N)c2)CC3)cc1", "read by": "PCR", "conditions": "3 d", "cell line": "HepG2.117", "value": "<0.1 µM"}
{"SMILES": "O=C(O)c1cc2c(n(C3CC3)c1=O)-c1cc(Cl)c(OC[C@@H]3COCCO3)cc1S(=O)(=O)C2", "read by": "antigen / visual reading / absorbance", "cell line": "Primary human hepatocytes", "value": "0.1–0.5 µM"}
{"SMILES": "O=C(NCc1ccccc1)c1cnn2c3c(c(=O)n(-c4ccccc4)c12)CCN(C(=O)c1ccc(Cl)c(Cl)c1)C3", "read by": "PCR", "conditions": "3 d", "cell line": "HepG2.117", "value": ">5 µM"}
{"SMILES": "COCc1ccc(C(=O)NC2CC3(C2)CC(c2nc4cc(Cl)ccc4o2)C3)o1", "read by": "luminescence", "cell line": "Primary human hepatocytes", "value": "7.965 µM"}
{"SMILES": "O=C(NCc1ccccc1)c1c2n(c(=O)n1-c1cccc(Cl)c1)CCN(C(=O)c1ccc(Br)c(Cl)c1)C2", "read by": "PCR", "cell line": "HepG2.117", "value": "0.5–5 µM"}
{"SMILES": "C[C@@H]1[C@@H](C)c2[nH]nc(-c3ncccn3)c2CN1C(=O)Nc1ccc(F)c(C#N)c1", "read by": "PCR", "cell line": "HepG2.2.15", "value": "0.015 µM"}
{"SMILES": "C#CCNC(=O)C(=O)c1cn(C)c(C(=O)Nc2ccc(F)c(C#N)c2)c1F", "read by": "PCR", "cell line": "HepG2.2.15", "value": "0.1–0.999 µM"}
{"SMILES": "NS(=O)(=O)c1ccc(-n2c(C(=O)NCc3ccccc3)c3n(c2=O)CCN(C(=O)c2ccc(Br)c(Cl)c2)C3)cc1", "read by": "PCR", "cell line": "HepG2.117", "value": ">5 µM"}
{"SMILES": "COCCCOc1cc2c(cc1-c1ccccc1)-c1c(cc(C(=O)O)c(=O)n1C1CC1)C(C)S2(=O)=O", "read by": "antigen / visual reading / absorbance", "cell line": "Primary human hepatocytes", "value": ">0.5 µM"}
{"SMILES": "O=C(NC1CC2(C1)CC(c1nc3cc(Cl)ccc3o1)C2)C1CCS(=O)(=O)CC1", "read by": "luminescence", "cell line": "Primary human hepatocytes", "value": "5.23 µg/mL"}
{"SMILES": "CNC(=O)c1cnc(-n2c(=O)c3c(n4ncc(Cc5ccccc5)c24)CN(C(=O)c2ccc(Br)c(C(F)(F)F)c2)[C@H](C)C3)nc1", "read by": "luminescence", "cell line": "HepG2.117", "value": "≤0.05 µM"}
{"SMILES": "C=C[C@H](C)Nc1nc2c(c(=O)n1-c1ccc(C(=O)N(C)C(=O)OCOC(=O)C[C@H](O)C(=O)O)cc1)C[C@@H](C)N(C(=O)c1ccc(Br)c(C(F)(F)F)c1)C2", "read by": "PCR", "strain or isolate": "Genotype D", "cell line": "HepG2.117", "value": "<0.05 µM"}
{"SMILES": "CCCOc1cc2c(cc1Cl)-c1c(cc(C(=O)O)c(=O)n1C1CC1)C(C)S2(=O)=O", "read by": "antigen / visual reading / absorbance", "cell line": "Primary human hepatocytes", "value": "0.05–0.1 µM"}
{"SMILES": "CNc1nc2c(N)ncnc2n1[C@H]1CC[C@@H](CO)C1", "read by": "hybridisation", "cell line": "HepG2 2.2.15", "value": "33 µM"}
{"SMILES": "Cn1cnc2c(CNC(=O)c3c4n(c(=O)n3-c3ccc(OCC(F)(F)F)cc3)CCN(C(=O)c3ccc(Br)c(Cl)c3)C4)cccc21", "read by": "PCR", "cell line": "HepG2.117", "value": "0.1–0.5 µM"}
{"SMILES": "COCCC(C)Oc1cc2c(cc1Cl)-c1c(cc(C(=O)O)c(=O)n1C1CC1)CS2(=O)=O", "read by": "antigen / visual reading / absorbance", "cell line": "Primary human hepatocytes", "value": ">0.05 µM"}
{"SMILES": "C[C@@H]1Cc2nn3c(c2CN1C(=O)Nc1ccc(F)c(C#N)c1)C(=O)N(C)C[C@H](c1ccn[nH]1)C3", "read by": "fluorescence", "cell line": "HepG2.2.15", "value": "37 µM"}
{"SMILES": "NC(=O)c1cc(C(=O)NC2CC3(C2)CC(c2nc4cc(Cl)ccc4s2)C3)ccn1", "read by": "luminescence", "cell line": "Primary human hepatocytes", "value": "6.81 µM"}
{"SMILES": "Cc1nc(-c2ccc(-n3c(=O)c4c(n5ncc(Cc6ccccc6)c35)CN(C(=O)c3ccc(Br)c(C(F)(F)F)c3)[C@H](C)C4)cc2)n[nH]1", "read by": "luminescence", "cell line": "HepG2.117", "value": "≤0.05 µM"}
{"SMILES": "O=C(CN(c1cc(C(F)(F)F)ccc1Cl)S(=O)(=O)c1ccccc1)NCc1ccncc1", "read by": "visual reading / absorbance", "strain or isolate": "Genotype D", "cell line": "HepG2-NTCPsec+", "value": "0.5 µM"}
{"SMILES": "C#CC1(NC(=O)C(=O)c2c(F)c(C(=O)Nc3ccc(F)c(C#N)c3)n(C)c2C)COC1", "read by": "PCR", "cell line": "HepG2.2.15", "value": "<0.001 µM"}
{"SMILES": "CN(C)C(=O)c1nc2c(N)ncnc2n1[C@H]1CC[C@@H](CO)C1", "read by": "hybridisation", "cell line": "HepG2 2.2.15", "value": "47 µM"}
{"SMILES": "CC(C)Cc1cnn2c3c(c(=O)n(-c4ccc(-c5nncn5C)cc4)c12)C[C@@H](C)N(C(=O)c1ccc(Br)c(Cl)c1)C3", "read by": "luminescence", "cell line": "HepG2.117", "value": "≤0.05 µM"}
{"SMILES": "C[C@@H]1c2[nH]nc(-c3ncccn3)c2CN(C(=O)Nc2ccnc(Br)c2F)[C@H]1C", "read by": "PCR", "cell line": "HepG2.2.15", "value": "0.028 µM"}
{"SMILES": "O=C(c1ccc(Br)c(Cl)c1)N1CCn2c(c3n(c2=O)C[C@@H](CO)CN(Cc2ccccc2)C3=O)C1", "read by": "PCR", "cell line": "HepG2.117", "value": "0.1–0.5 µM"}
{"SMILES": "CNC(=O)c1cc2c(cc1OCCCOC)S(=O)(=O)C(C)c1cc(C(=O)O)c(=O)n(C3CC3)c1-2", "read by": "antigen / visual reading / absorbance", "cell line": "Primary human hepatocytes", "value": ">0.5 µM"}
{"SMILES": "C[C@H](NC(=O)c1c2n(c(=O)n1-c1ccc(OCC(F)(F)F)cc1)CCN(C(=O)c1ccc(Br)c(Cl)c1)C2)c1ccccc1", "read by": "PCR", "cell line": "HepG2.117", "value": "0.5–5 µM"}
{"SMILES": "C=C[C@H](C)Nc1nc2c(c(=O)n1-c1ccc(C(=O)N(C)C(=O)OCOC(=O)[C@H](N)C(C)C)cc1)C[C@@H](C)N(C(=O)c1ccc(Br)c(C(F)(F)F)c1)C2", "read by": "PCR", "strain or isolate": "Genotype D", "cell line": "HepG2.117", "value": "<0.05 µg/mL"}
{"SMILES": "CNC(=O)c1ccc(-n2c(=O)c3c(n4ncc(Cc5ccc(OC)cc5)c24)CN(C(=O)c2ccc(Br)c(C#N)c2)CC3)cc1", "read by": "PCR", "conditions": "3 d", "cell line": "HepG2.117", "value": "<0.1 µM"}